One series concerns HBV replication in HepDES19 cells.
Experiment: not given
To be noted: CC50/EC50; Figure 1, earlier HBV RNase H inhibitors; cited from earlier work.
For `COc1ccc(CON=C(C)c2c(C)cc(=O)n(O)c2O)cc1` [A24], the SI is reported as 352. As for `C/C(=N\c1ccccc1N)c1c(C)cc(=O)n(O)c1O` [Compound 54], the SI was 29.

The series is the same for the next values; noted with them: CC50/EC50; previously published compound, Table 1; cited from earlier work.
With `C/C(=N\c1ccccc1N)c1c(C)cc(=O)n(O)c1O` [Compound 54], the SI was 22.

The series is the same for the next values; noted with them: CC50/EC50; previously published compound; cited from earlier work.
Consider `C/C(=N\OCc1ccccc1F)c1c(C)cc(=O)n(O)c1O` [Compound 52], for which the SI is listed as 281.

The series is the same for the next values; noted with them: CC50/EC50; previously published compounds; cited from earlier work.
For `C/C(=N\OCc1cccc(Cl)c1)c1c(C)cc(=O)n(O)c1O` [Compound 50], the SI was 42.1. Regarding `C/C(=N\OCc1ccc(Cl)cc1)c1c(C)cc(=O)n(O)c1O` [Compound 51], the SI is given as 130. `C/C(=N\OCc1ccc(Br)cc1)c1c(C)cc(=O)n(O)c1O` [Compound 48]: the SI is recorded as 67.9. With `C/C(=N\OCc1ccccc1Br)c1c(C)cc(=O)n(O)c1O` [Compound 46], the SI is 40.0. For `C/C(=N\OCc1cccc(F)c1)c1c(C)cc(=O)n(O)c1O` [Compound 53], the SI is reported as 1231. As for `C/C(=N\OCc1cccc(Br)c1)c1c(C)cc(=O)n(O)c1O` [Compound 47], the SI is 151.

Staying with this series, now noted: hit compound as quoted in the text; ratio CC50 / EC50; cited from earlier work.
Turning to `C/C(=N\c1ccccc1N)c1c(C)cc(=O)n(O)c1O` [Compound 54], the SI is 28.7.

Another series has the same test system. The experiment in a line: qPCR HBV replication inhibition assay. Format: cell-based, HBV genotype D. To be noted: CC50/EC50. As to the method:
HepDES19 cells are a HepG2 cell-line derivative that has been stably transfected with an HBV genotype D genome containing a tetracycline repressible promoter. HepDES19 cells were maintained on collagen-coated plates in Dulbecco’s modified Eagle’s medium (DMEM/F12) (Cytiva Life Sciences, Marlborough, MA, USA) supplemented with 10% fetal bovine serum (FBS), streptomycin (100 µg/mL), and penicillin (100 IU/mL), and incubated at 37 °C with 5% CO2 and saturating humidity. Cells were cultured with 1 µg/mL tetracycline to inhibit the expression of the stably integrated HBV genome, and HBV replication was activated upon removal of tetracycline from the culture medium.
HBV replication inhibition in HepDES19 cells was assessed using a strand-preferential quantitative PCR assay as previously described. HepDES19 cells were seeded in 96 well plates at 4 × 10^4 cells/well for 48 h followed by the addition of serial diluted compound with a final concentration of 1% DMSO for 72 h, after which cells were lysed, and qPCR was performed as described in Li et al.. Effective concentration 50% (EC50) values were calculated from data for the (+) polarity DNA strand data using GraphPad Prism version 10’s four-parameter log (inhibitor) versus response algorithm, with the bottom value set to zero. Three or more replicate assays were performed on different days.
`CC(=NCc1cc(F)cc(F)c1)c1c(C)cc(=O)n(O)c1O` [Compound 42, 5-(1-((3,5-difluorobenzyl)imino)ethyl)-1,6-dihydroxy-4-methylpyridin-2(1H)-one] registered an SI of 1.1. With `CC(=NCc1ccccc1Br)c1c(C)cc(=O)n(O)c1O` [Compound 33, 5-(1-((2-bromobenzyl)imino)ethyl)-1,6-dihydroxy-4-methylpyridin-2(1H)-one], the SI came out at 6.1.

`CC(=NCc1ccc(Cl)cc1)c1c(C)cc(=O)n(O)c1O` [Compound 38, 5-(1-((4-chlorobenzyl)imino)ethyl)-1,6-dihydroxy-4-methylpyridin-2(1H)-one] gave an SI of 1.2. On the same count and under the same terms, for `CC(=NOCc1ccc(Cl)cc1Cl)c1c(C)cc(=O)n(O)c1O` [Compound 31, 5-(1-(((2,4-dichlorobenzyl)oxy)imino)ethyl)-1,6-dihydroxy-4-methylpyridin-2(1H)-one] the value was 65.1; for `CC(=NCc1ccc(Br)cc1)c1c(C)cc(=O)n(O)c1O` [Compound 35, 5-(1-((4-bromobenzyl)imino)ethyl)-1,6-dihydroxy-4-methylpyridin-2(1H)-one], 3.0; for `CC(=Nc1ccc(F)c(Cl)c1)c1c(C)cc(=O)n(O)c1O` [Compound 29, 5-(1-((3-chloro-4-fluorophenyl)imino)ethyl)-1,6-dihydroxy-4-methylpyridin-2(1H)-one], 21.8. With `CC(=NCc1ccccc1Cl)c1c(C)cc(=O)n(O)c1O` [Compound 36, 5-(1-((2-chlorobenzyl)imino)ethyl)-1,6-dihydroxy-4-methylpyridin-2(1H)-one], the SI is given as 19.0. In the case of `CC(=Nc1ccc(F)cc1F)c1c(C)cc(=O)n(O)c1O` [Compound 26, 5-(1-((2,4-difluorophenyl)imino)ethyl)-1,6-dihydroxy-4-methylpyridin-2(1H)-one], the SI was found to be 19.1.

On to `CC(=NCCOc1ccc(Cl)cc1)c1c(C)cc(=O)n(O)c1O` [Compound 43, 5-(1-((2-(4-chlorophenoxy)ethyl)imino)ethyl)-1,6-dihydroxy-4-methylpyridin-2(1H)-one], for which the SI was 1.8.

Compound `CC(=NOCc1ccc(Cl)c(Cl)c1)c1c(C)cc(=O)n(O)c1O` [Compound 30, 5-(1-(((3,4-dichlorobenzyl)oxy)imino)ethyl)-1,6-dihydroxy-4-methylpyridin-2(1H)-one] registered an SI of 28.2. The same measure, in the same setting: for `CC(=NOCc1ccccc1I)c1c(C)cc(=O)n(O)c1O` [Compound 32, 1,6-dihydroxy-5-(1-(((2-iodobenzyl)oxy)imino)ethyl)-4-methylpyridin-2(1H)-one] the value was 30.5; for `CC(=Nc1c(F)cccc1F)c1c(C)cc(=O)n(O)c1O` [Compound 28, 5-(1-((2,6-difluorophenyl)imino)ethyl)-1,6-dihydroxy-4-methylpyridin-2(1H)-one], 19.3; for `CC(=NCc1cccc(F)c1)c1c(C)cc(=O)n(O)c1O` [Compound 39, 5-(1-((3-fluorobenzyl)imino)ethyl)-1,6-dihydroxy-4-methylpyridin-2(1H)-one], 0.7. The same measure, in the same setting: for `CC(=Nc1ccccc1F)c1c(C)cc(=O)n(O)c1O` [Compound 21, 5-(1-((2-fluorophenyl)imino)ethyl)-1,6-dihydroxy-4-methylpyridin-2(1H)-one] the value was 39.2. Same read-out and setting: for `CC(=Nc1ccc(Cl)c(Cl)c1)c1c(C)cc(=O)n(O)c1O` [Compound 24, 5-(1-((3,4-dichlorophenyl)imino)ethyl)-1,6-dihydroxy-4-methylpyridin-2(1H)-one] the value was 31.8; for `CC(=NCc1ccc(F)cc1)c1c(C)cc(=O)n(O)c1O` [Compound 40, 5-(1-((4-fluorobenzyl)imino)ethyl)-1,6-dihydroxy-4-methylpyridin-2(1H)-one], 0.9. `CC(=NCc1cccc(Br)c1)c1c(C)cc(=O)n(O)c1O` [Compound 34, 5-(1-((3-bromobenzyl)imino)ethyl)-1,6-dihydroxy-4-methylpyridin-2(1H)-one]: the SI is recorded as 1.7. Still for that read-out and setting: next, `CC(=Nc1ccccc1Br)c1c(C)cc(=O)n(O)c1O` [Compound 25, 5-(1-((2-bromophenyl)imino)ethyl)-1,6-dihydroxy-4-methylpyridin-2(1H)-one]: 10.1; `CC(=NCc1ccc(F)c(F)c1)c1c(C)cc(=O)n(O)c1O` [Compound 41, 5-(1-((3,4-difluorobenzyl)imino)ethyl)-1,6-dihydroxy-4-methylpyridin-2(1H)-one]: 2.2. Same read-out and setting: for `CC(=NOCc1ccccc1Cl)C1C(=O)NC(=O)NC1=O` [Compound 45, 5-(1-(((2-chlorobenzyl)oxy)imino)ethyl)pyrimidine-2,4,6(1H,3H,5H)-trione] the value was 1.0; for `CC(=Nc1ccccc1Cl)c1c(C)cc(=O)n(O)c1O` [Compound 23, 5-(1-((2-chlorophenyl)imino)ethyl)-1,6-dihydroxy-4-methylpyridin-2(1H)-one], 31.7. Still for that read-out and setting: for `CC(=NCc1cccc(Cl)c1)c1c(C)cc(=O)n(O)c1O` [Compound 37, 5-(1-((3-chlorobenzyl)imino)ethyl)-1,6-dihydroxy-4-methylpyridin-2(1H)-one] the value was 7.2; for `CC(=Nc1ccc(F)c(F)c1)c1c(C)cc(=O)n(O)c1O` [Compound 22, 5-(1-((3,4-difluorophenyl)imino)ethyl)-1,6-dihydroxy-4-methylpyridin-2(1H)-one], 112.4; for `CC(=Nc1cc(F)ccc1F)c1c(C)cc(=O)n(O)c1O` [Compound 27, 5-(1-((2,5-difluorophenyl)imino)ethyl)-1,6-dihydroxy-4-methylpyridin-2(1H)-one], 29.7.

The values above are taken from publication PMC12564302, “Discovery of N-Hydroxypyridinedione-Based Inhibitors of HBV RNase H: Design, Synthesis, and Extended SAR Studies” (International Journal of Molecular Sciences, 2025).
